Measured values from several laboratories, pooled; numbers as filed in NIAID ChemDB.

Shared fields: toxicity to cultured cells; cell line: MT-4; read by: MTT; read-out: CC50

CCn: concentration that lowers growth or viability of the cells by n%. Rows are shuffled and stem from different studies.

smiles,result
COc1cc([N+](=O)[O-])ccc1NC(=O)C1=C(C)NC(=O)C2C(N)=NN=C12,86.7 µg/mL
Cc1ccc(S(=O)(=O)Sc2nnc(CNC(=O)COc3ccc4ccccc4c3)n2-c2ccccc2)cc1,>12.7 µg/mL
COc1ccc(C(=O)/C=C/c2ccc(Br)cc2)c(O)c1,32.54 µM
Cc1cn([C@]2(C)CO[C@@H](CO)O2)c(=O)[nH]c1=O,>100 µM
Cc1ccc(-c2cc(-c3ccc(Cl)cc3)nc(/N=C3\C(=O)N(CN4CCCCC4)c4ccc(Br)cc43)n2)cc1,<1 µM
O=C1CC2CCC1C1C(=O)NC(=O)C21,>100 µM
Cc1cn([C@H]2C[C@H](N=[N+]=[N-])[C@@H](CO)O2)c(=O)[nH]c1=O,47.4 µg/mL
CC1=C(C(=O)Nc2ccc([N+](=O)[O-])cc2)C2=NN=C(N)C2C(=O)N1,56.8 µg/mL
COc1ccc(/C=C/C(=O)c2ccccc2O)cc1OC,388 µM
CCCN(C)c1nc(C(C)c2c(F)cccc2F)c(C)c(=O)[nH]1,>311 µM
CCOP(=O)(OCC)C(N[C@@H](Cc1ccccc1)[C@@H](O)CN(CC(C)C)S(=O)(=O)c1ccc(OC)cc1)c1ccc(C)cc1,4.94 µg/mL
c1cnc2c(c1)Cc1n[nH]nc1C2,>100 µM
Nc1ccn([C@H]2CC[C@@H](CO)O2)c(=O)n1,2200 µM
CCCCCCNc1c(N=Nc2ccc(-c3ccc(F)cc3)cc2)c(N)nc(=O)n1C,11.66 µM
O=C(COc1cccc2ccccc12)NN=CCc1ccccc1,62.68 µg/mL
COc1ccc(C(=O)/C=C/c2ccc(O)cc2)c(O)c1,38.78 µM
COc1ccc(CSc2nc(C(=O)c3cccc(F)c3)c(C)c(=O)[nH]2)cc1,>325 µM
O=C1CC2CCC1C1C(=O)N(CCCN3CCN(c4ncccn4)CC3)C(=O)C21,>100 µM
Cc1ccc(-c2cc(-c3ccc(Cl)cc3)nc(/N=C3\C(=O)N(CN4CCCCC4)c4ccccc43)n2)cc1,1.1 µM
COc1ccc(C(=O)/C=C/c2ccccc2)c(O)c1,205 µM
c1cnc2cc3n[nH]nc3cc2c1,>100 µM
O=C1CC2CCC1C1C(=O)N(CCCN3CCN(c4ccc(F)cc4)CC3)C(=O)C21,>100 µM
Nc1cc2c(=O)c(C(=O)O)cn(C3CC3)c2cc1N1CCN(c2cnccn2)CC1,49.2 µM
Cc1ccccc1N1CCN(CCCCN2C(=O)C3C4CCC(C(=O)C4)C3C2=O)CC1,>100 µM
Cc1cc(/C=C/C#N)cc(C)c1Oc1ccnc(S(=O)(=O)CC(=O)NCc2ccc(Br)cc2)n1,3.37 µM
CCC(C)Sc1nc(Cc2cc(C)cc(C)c2)cc(=O)[nH]1,133 µM
O=C1CC2CCC1C1C(=O)N(CC(O)CN3CCN(c4ccccc4)CC3)C(=O)C21,>100 µM
CCOC(=O)c1c(C)n([C@H]2C[C@@H]2c2ccccc2)c2ccc(O)cc12,>250 µM
Cc1cn([C@@]2(C)CO[C@@H](CO)O2)c(=O)[nH]c1=O,>100 µM
CC1=C(C(=O)Nc2ccc(F)c(Cl)c2)C2=NN=C(N)C2C(=O)N1,18.4 µg/mL
Cn1c(N(Cc2ccccc2)Cc2ccccc2)c(N=Nc2ccc(Cl)cc2)c(N)nc1=O,78.59 µM
O=C(COc1ccc2ccccc2c1)NCC(=O)NNC(=S)Nc1ccccc1,≥67.9 µg/mL
CC1=C(C(=O)Nc2cc(Cl)ccc2Cl)C2=NN=C(N)C2C(=O)N1,49.1 µg/mL
C/C=C(\C)C(=O)O[C@H]1[C@H](OC(=O)CCC)[C@@]23C(CC1(C)C)[C@]1(CCC4[C@@]5(C)CC[C@H](O[C@@H]6O[C@H](CO)[C@@H](O)[C@H](O[C@@H]7O[C@H](CO)[C@H](O)[C@H](O)[C@H]7O[C@@H]7O[C@@H](C)[C@H](O)[C@@H](O)[C@H]7O)[C@H]6O[C@@H]6O[C@H](CO)[C@H](O)[C@H](O)[C@H]6O)C(C)(C)C5CC[C@@]4(C)[C@]1(C)C[C@H]2O)O[C@@H]3O,<15 µg/mL
COc1ccc(/C=C/C(=O)c2ccccc2O)cc1,>400 µM
Cc1cc(-c2ccc(C#N)cc2)cc(C)c1Oc1ccnc(S(=O)(=O)CC(=O)Nc2ccc(Br)cc2)n1,26.91 µM
CCCCOP(=O)(N[C@@H](Cc1ccccc1)[C@H](O)CN(CC(C)C)S(=O)(=O)c1ccc(OC)cc1)OCCCC,13.08 µg/mL
CNc1cc2c(=O)c(C(=O)O)cn(N(C)C)c2cc1N1CCN(c2ccccn2)CC1,178 µM
C=CCNc1c(N=Nc2ccc(Cl)cc2)c(N)nc(=O)n1C,14.23 µM
CCC(CO)n1cc(C(=O)O)c(=O)c2cc(N)c(N3CCN(c4ccccn4)CC3)cc21,25.25 µM
Cn1c(-c2ccc(F)c(F)c2)cc(N)nc1=O,16.01 µM
Cc1cc(/C=C/C#N)cc(C)c1Oc1ccnc(S(=O)(=O)CC(=O)NCc2ccc(F)cc2)n1,5.29 µM
CC(=O)OCC(=O)O[C@@H]1[C@H]2[C@@H](OC(=O)c3ccccc3)[C@@H](C)C[C@]2(O)[C@H](OC(C)=O)[C@]2(C)C(OC(C)=O)[C@@]1(OC(C)=O)C[C@H]1C(=O)C(C)(C)[C@@H](OC(C)=O)[C@@H]12,51 µg/mL
O=C1CC2CCC1C1C(=O)N(CCCBr)C(=O)C21,>100 µM
Fc1ccccc1-c1nc(-c2nnc(C34CCC5CC(CC3C5)C4)o2)cs1,≥97.6 µM
Cn1c(-c2ccccc2F)cc(N)nc1=O,13.27 µM
COc1ccc(NC(=S)NNC(=O)CNC(=O)COc2ccc3ccccc3c2)cc1,13.2 µg/mL
COc1ccc(CSc2nc(C(=O)c3cccc(Br)c3)c(C)c(=O)[nH]2)cc1,252 µM
CC(C)NCC(O)CN1C(=O)C2C3CCC(C(=O)C3)C2C1=O,>100 µM
Cc1ccc(-c2cc(-c3ccc(Cl)cc3)nc(/N=C3\C(=O)N(CN4CCOCC4)c4ccc(Cl)cc43)n2)cc1,3 µM
O=C(COc1ccc2ccccc2c1)NCc1nnc(Nc2ccccc2)s1,2.92 µg/mL
C=C1[C@H](OC(C)=O)[C@H]2[C@@H](OC(C)=O)[C@](C)(OC(C)=O)C[C@]2(OC(C)=O)C(=O)[C@@H](C)/C=C/C(C)(C)C(=O)[C@@H](OC(=O)c2ccccc2)[C@H]1OC(C)=O,79 µg/mL
CCN(CC)CC(O)CN1C(=O)C2C3CCC(C(=O)C3)C2C1=O,>100 µM
Cc1ccc(-c2nc(-c3nnc(C45CCC6CC(CC4C6)C5)o3)cs2)cc1,105.7 µM
Cn1c(-c2ccc(F)cc2)c(N=Nc2ccc(-c3ccc(F)cc3)cc2)c(N)nc1=O,66.6 µM
CCOP(=O)(OCC)C(N[C@@H](Cc1ccccc1)[C@@H](O)CN(CC(C)C)S(=O)(=O)c1ccc(OC)cc1)c1ccc([N+](=O)[O-])cc1,3.94 µg/mL
O=C(COc1ccc2ccccc2c1)NCc1n[nH]c(=S)n1-c1ccc(Cl)cc1,20.2 µg/mL
Cc1ccc(-c2cc(-c3ccc(Cl)cc3)nc(/N=C3\C(=O)N(CN(C)C)c4ccc(Cl)cc43)n2)cc1,6.8 µM
C/C=C(\C)C(=O)O[C@H]1[C@H](OC(=O)/C(C)=C/C)[C@@]23C(CC1(C)C)[C@]1(CCC4[C@@]5(C)CC[C@H](O[C@@H]6O[C@H](CO)[C@@H](O)[C@H](O[C@@H]7O[C@H](CO)[C@H](O)[C@H](O)[C@H]7O[C@@H]7O[C@@H](C)[C@H](O)[C@@H](O)[C@H]7O)[C@H]6O[C@@H]6O[C@H](CO)[C@H](O)[C@H](O)[C@H]6O)C(C)(C)C5CC[C@@]4(C)[C@]1(C)C[C@H]2O)O[C@@H]3O,<15 µg/mL
Cc1ccc(NC(=S)NNC(=O)CNC(=O)COc2ccc3ccccc3c2)cc1,91.4 µg/mL
COc1ccc(CSc2nc(C(=O)c3cccc(Cl)c3)c(C)c(=O)[nH]2)cc1,>151 µM
CCOP(=O)(OCC)C(N[C@@H](Cc1ccccc1)[C@H](O)CN(CC(C)C)S(=O)(=O)c1ccc(OC)cc1)c1ccccc1,13.25 µg/mL
Cc1cc(-c2ccc(C#N)cc2)cc(C)c1Oc1ccnc(S(=O)(=O)CC(=O)NCCc2ccc(Br)cc2)n1,8.44 µM
C=C1[C@H](OC(C)=O)[C@H]2[C@@H](OC(C)=O)[C@](C)(OC(C)=O)C[C@]2(OC(C)=O)C(=O)[C@@H](C)/C=C/C(C)(C)C(=O)[C@@H](OCC(C)C)[C@H]1OC(C)=O,69 µg/mL
COc1ccc(C(=O)/C=C/c2ccc(OC)cc2OC)cc1,143 µM
CCOP(=O)(OCC)C(N[C@@H](Cc1ccccc1)[C@@H](O)CN(CC(C)C)S(=O)(=O)c1ccc(OC)cc1)c1ccccn1,13.93 µg/mL
C/C=C(\C)C(=O)O[C@H]1[C@H](O)[C@@]23C(CC1(C)C)[C@]1(CCC4[C@@]5(C)CC[C@H](O[C@@H]6O[C@H](CO)[C@@H](O)[C@H](O[C@@H]7O[C@H](CO)[C@H](O)[C@H](O)[C@H]7O[C@@H]7O[C@@H](C)[C@H](O)[C@@H](O)[C@H]7O)[C@H]6O[C@@H]6O[C@H](CO)[C@H](O)[C@H](O)[C@H]6O)C(C)(C)C5CC[C@@]4(C)[C@]1(C)C[C@H]2OC(C)=O)O[C@@H]3O,<150 µg/mL
Fc1ccc(-c2nc(-c3nnc(C45CCC6CC(CC4C6)C5)o3)cs2)cc1,75.2 µM
Cc1cc(C)cc(S(=O)(=O)c2c(C(N)=O)[nH]c3c(Cl)cc(Cl)cc23)c1,>200 µM
CCOP(=O)(OCC)C(N[C@@H](Cc1ccccc1)[C@H](O)CN(CC(C)C)S(=O)(=O)c1ccc(OC)cc1)c1ccc(C)cc1,2.47 µg/mL
Nc1cc2c(=O)c(C(=O)O)cn(C3CC3)c2nc1N1CCN(c2ccccn2)CC1,10 µM
c1ccc(COC2C3COC(O3)C(OCc3ccccc3)C2OCc2ccccc2)cc1,>162 µg/mL
C[C@]1(n2ccc(=O)[nH]c2=O)CO[C@@H](CO)O1,>100 µM

For reference, 4 entries again:

smiles	result
COc1ccc(CSc2nc(C(=O)c3cccc(Br)c3)c(C)c(=O)[nH]2)cc1	252 µM
Nc1cc2c(=O)c(C(=O)O)cn(C3CC3)c2nc1N1CCN(c2ccccn2)CC1	10 µM
CCCCCCNc1c(N=Nc2ccc(-c3ccc(F)cc3)cc2)c(N)nc(=O)n1C	11.66 µM
O=C1CC2CCC1C1C(=O)N(CCCN3CCN(c4ccc(F)cc4)CC3)C(=O)C21	>100 µM